A mixed list of measured activities; the numbers were collected in NIAID ChemDB.

Shared fields: enzyme or target tests

An empty or dashed field is not shown. Percent inhibition refers to the dose given; in toxicity tests it is the harm to the cells. a–b is a range or a potency band. ICn is the concentration giving n% inhibition. Neighbouring rows are from separate reports.

compound | target | read-out | tested at | species | strain or isolate | read by | value
C[C@H]1CCC[C@H](C)C1n1c(-c2ccoc2)nc2cc(C(=O)NC3(C(=O)Nc4ccc(/C=C/C(=O)O)cc4)CCCC3)ccc21 | NS5B polymerase | IC50 |  | Hepatitis C virus |  |  | 0.5–5 µM
N#Cc1c(C2CCCCC2)nc(SCC(=O)OCc2ccccc2)[nH]c1=O | NS3/NS4A helicase | IC50 |  | Hepatitis C virus |  |  | 15–40 µM
C=CC1CC1(NC(=O)[C@@H]1C[C@@H](Oc2cc(-c3ccccc3)nc3cc(OC)ccc23)CN1C(=O)[C@@H](NC(=O)OC(C)(C)C)C(C)(C)C)C(=O)NS(=O)(=O)C1([Si](C)(C)C)CC1 | NS3/NS4A protease | IC50 |  | Hepatitis C virus | BMS |  | <0.05 µM
O=C1OC(CCc2ccc(O)cc2)(C2CCCC2)CC(O)=C1Sc1ccc2ccccc2c1 | Nonstructural protein 5B | IC50 |  | Hepatitis C virus |  |  | 1–10 µM
Cc1ccc(C(=O)N(Cc2ccccc2C)c2cc(-c3ccccc3)sc2C(=O)O)cc1 | NS3 ATPase | IC50 |  | Hepatitis C virus |  |  | <5 µM
CC(C)[C@H](NC(=O)OC(C)(C)C)C(=O)N1CC[C@H]2[C@H]1C1(CCC1)C(=O)N2C(=O)C1CC1 | Nonstructural protein 3 protease | IC50 |  | Hepatitis C virus |  |  | 0.51 µM
COc1ccc(OC)c(COc2ccc(-c3cnc4c(-c5nn[nH]n5)cnn4c3C3CCCCC3)cc2)c1 | RNA-dependent RNA polymerase | IC50 |  | Hepatitis C virus |  |  | 1–10 µM
C=C[C@@H]1C[C@]1(NC(=O)[C@H]1C[C@@H](Oc2cc(-c3ccccc3)nc3cc(OC)ccc23)CN1C(=O)[C@H](CC1CCCCC1)NC(=O)OC(C)(C)C)C(=O)NS(=O)(=O)C(F)(F)F | NS3/NS4A protease | IC50 |  | Hepatitis C virus | BMS |  | <5 µM
N#Cc1c(C2CCCCC2)nc(SCc2cc(Cl)ccc2Cl)[nH]c1=O | NS3/NS4A helicase | IC50 |  | Hepatitis C virus |  |  | <15 µM
C=C[C@@H]1C[C@]1(NC(=O)[C@@H]1C[C@@H](Oc2cc(-c3ccccc3)nc3cc(OC)ccc23)CN1C(=O)[C@@H](NC(=O)OC(C)(C)C)C(C)(C)C)C(=O)NS(=O)(=O)c1ccc(C)cc1 | NS3/NS4A protease | IC50 |  | Hepatitis C virus | BMS |  | <0.05 µM
N#Cc1c(-c2ccc(Cl)cc2)nc(CCc2ccccc2)[nH]c1=O | NS3/NS4A helicase | IC50 |  | Hepatitis C virus |  |  | >40 µM
C=C[C@H]1C[C@@]1(NC(=O)[C@@H]1C[C@@H](Oc2ccnc3cc(Cl)ccc23)CN1C(=O)[C@@H](NC(=O)OC1CCCC1)C(C)(C)C)C(=O)NS(=O)(=O)C1(CC2CC2)CC1 | NS3/NS4A protease | IC50 |  | Hepatitis C virus | BMS |  | <0.05 µM
C=C1C[C@]1(NC(=O)[C@@H]1C[C@@H](Oc2cc(-c3ccccc3)nc3cc(OC)ccc23)CN1C(=O)[C@@H](NC(=O)OC(C)(C)C)C(C)(C)C)C(=O)NS(=O)(=O)c1cc(F)ccc1C | NS3/NS4A protease | IC50 |  | Hepatitis C virus | BMS |  | <0.05 µM
N#Cc1c(-c2ccc(Br)cc2)nc(NC(=O)Nc2cccc(F)c2)[nH]c1=O | NS3/NS4A helicase | IC50 |  | Hepatitis C virus |  |  | <15 µM
Cc1ccccc1S(=O)(=O)Nc1cc(-c2ccc(CO)cc2)sc1C(=O)O | NS3 ATPase | IC50 |  | Hepatitis C virus |  |  | <5 µM
C=C[C@@H]1C[C@]1(NC(=O)[C@@H]1C[C@@H](Oc2cc(-c3ccccc3)nc3cc(OC)ccc23)CN1C(=O)[C@@H](NC(=O)CC(C)(C)C)C(C)(C)C)C(=O)NS(=O)(=O)C1CC1 | NS3/NS4A protease | IC50 |  | Hepatitis C virus | BMS |  | <0.05 µM
Cc1nn2c(C3CCCCC3)c(-c3ccc(F)cc3)cnc2c1C(=O)O | RNA-dependent RNA polymerase | IC50 |  | Hepatitis C virus |  |  | >10 µM
CC[C@@H]1C(=O)N(C(=O)C2CC2)[C@H]2CCN(C(=O)[C@@H](NC(=O)OC(C)(C)C)C(C)C)[C@H]12 | Nonstructural protein 3 protease | IC50 |  | Hepatitis C virus |  |  | 8.9 µM
C=C[C@@H]1C[C@]1(NC(=O)[C@@H]1C[C@@H](Oc2cc(-c3ccccc3)nc3cc(OC)ccc23)CN1C(=O)[C@@H](NC(=O)OC(C)(C)C)C(C)(C)C)C(=O)NS(=O)(=O)C1CCC1 | NS3/NS4A protease | IC50 |  | Hepatitis C virus | BMS |  | <0.05 µM
C/C(=C\CCC1=CC[C@H](C2=CC(=O)O[C@@H]2O)O[C@H]1O)CCC1C(C)CCCC1(C)C | NS3 RNA helicase activity | IC50 |  | Hepatitis C virus |  |  | 15 µM
COc1ccc2c(O[C@@H]3C[C@@H](C(=O)NC4(C(=O)NS(=O)(=O)C5(Cc6ccccc6)CC5)CC4)N(C(=O)[C@@H](NC(=O)OC(C)(C)C)C(C)(C)C)C3)cc(-c3ccccc3)nc2c1 | NS3/NS4A protease | IC50 |  | Hepatitis C virus | BMS |  | 0.5–5 µM
C=C[C@@H]1C[C@]1(NC(=O)[C@@H]1C[C@@H](Oc2cc(-c3ccccc3)nc3cc(OC)ccc23)CN1C(=O)[C@@H](NC(=O)OC(C)(C)C)C(C)(C)C)C(=O)NS(=O)(=O)CC(C)(C)C | NS3/NS4A protease | IC50 |  | Hepatitis C virus | BMS |  | <0.5 µM
Nc1nc2c(ncn2CC[C@H](CO)COP(=O)(O)OP(=O)(O)OP(=O)(O)O)c(=O)[nH]1 | DNA polymerase | Ki |  | Hepatitis B virus |  |  | 0.03 µM
O=C(N[C@@H](Cc1cnc[nH]1)C(=O)O)c1cc2nc(-c3ccco3)c(C3CCCCC3)c(=O)n2[nH]1 | RNA-dependent RNA polymerase | IC50 |  | Hepatitis C virus |  |  | <1 µM
CC(C)[C@H](NC(=O)OC(C)(C)C)C(=O)N1CC[C@H]2[C@H]1C1(CCC1)C(=O)N2S(C)(=O)=O | Nonstructural protein 3 protease | IC50 |  | Hepatitis C virus |  |  | 4.4 µM
CCCC(NC(=O)c1ccc2c(c1)nc(-c1ccoc1)n2C1CCCCC1)C(=O)Nc1ccc(/C=C/C(=O)O)cc1 | NS5B polymerase | IC50 |  | Hepatitis C virus |  |  | <0.5 µM
O=C(O)c1ccc(-c2cccc(/C=N/NC(=O)c3cc(O)c(O)c(O)c3)c2)cc1 | RNase H | inhibition | 10 µM | Hepatitis B virus | gtD | RNase H / substrate cleavage | >43%
C[C@@H](NC(=O)c1ccc2c(c1)nc(-c1ccoc1)n2C1CCCCC1)C(=O)Nc1ccc(-c2ccc(C(=O)O)o2)cc1 | NS5B polymerase | IC50 |  | Hepatitis C virus |  |  | <0.5 µM
C#Cc1cc(NS(=O)(=O)c2ccccc2C)c(C(=O)O)s1 | NS3 ATPase | IC50 |  | Hepatitis C virus |  |  | 5–20 µM
C=C[C@@H]1C[C@]1(NC(=O)[C@@H]1C[C@@H](Oc2cc(-c3ccccc3)nc3cc(OC)ccc23)CN1C(=O)[C@@H](NC(=O)OC(C)(C)C)C(C)(C)C)C(=O)NS(=O)(=O)CCCC | NS3/NS4A protease | IC50 |  | Hepatitis C virus | BMS |  | <0.05 µM
CC1OC(=O)CC(=O)C1c1ccc(CCC2(C3CCCC3)CC(=O)CC(=O)O2)cc1 | Nonstructural protein 5B | IC50 |  | Hepatitis C virus |  |  | <1 µM
N#Cc1c(C2CCCCC2)nc(Sc2cc(C(F)(F)F)ccc2[N+](=O)[O-])[nH]c1=O | NS3/NS4A helicase | IC50 |  | Hepatitis C virus |  |  | <15 µM
Cc1oc(-c2cccc(NC(=O)[C@@H](C)NC(=O)c3ccc4c(c3)nc(-c3ccoc3)n4C3CCCCC3)c2)cc1C(=O)O | NS5B polymerase | IC50 |  | Hepatitis C virus |  |  | 0.5–5 µM
O=C(O)c1sc(-c2ccccc2)cc1N(Cc1ccccc1)C(=O)C1CCC1 | NS3 ATPase | IC50 |  | Hepatitis C virus |  |  | <5 µM
C[C@H](Cc1ccc(O)c(O)c1)[C@@H](C)Cc1ccc(O)c(O)c1 | RNase H | inhibition | 10 µM | Hepatitis B virus | gtD | RNase H / substrate cleavage | >43%
Cc1ccc(C(=O)Nc2cc(-c3ccccc3)sc2C(=O)O)cc1 | NS3 ATPase | IC50 |  | Hepatitis C virus |  |  | 5–20 µM
COc1ccc(CCC2(C3CCCC3)CC(=O)C(C(=O)Cc3cccnc3)C(=O)O2)c(OC)c1 | Nonstructural protein 5B | IC50 |  | Hepatitis C virus |  |  | 1–10 µM
C[C@@H]1CCCC[C@H]1n1c(-c2cccc3c2OCO3)nc2cc(C(=O)NC3(C(=O)Nc4ccc(/C=C/C(=O)O)cc4)CCCC3)ccc21 | NS5B polymerase | IC50 |  | Hepatitis C virus |  |  | 0.5–5 µM
CCOC(=O)c1c(C)c(S(=O)(=O)Nc2cc(-c3ccccc3)sc2C(=O)O)c(-c2ccc(Cl)cc2)n1-c1ccccc1 | NS3 ATPase | IC50 |  | Hepatitis C virus |  |  | 5–20 µM
O=C(O)/C=C/c1ccc(NC(=O)C2(NC(=O)c3ccc4c(c3)nc(-c3ccccn3)n4C3C[C@H]4CC[C@@H]3C4)CCCC2)cc1 | NS5B polymerase | IC50 |  | Hepatitis C virus |  |  | <0.5 µM
CCC[C@H](NC(=O)[C@@H]1CCCN1C(=O)[C@@H](NC(=O)[C@@H](NC(=O)[C@H](CC(=O)O)NC(=O)[C@H](CC(=O)O)NC(C)=O)[C@@H](C)CC)C(C)C)C(=O)O | NS3 serine protease | Ki |  | Hepatitis C virus |  |  | 150 µM
C=C[C@H]1C[C@@]1(NC(=O)[C@@H]1C[C@@H](Oc2cc(-c3ccccc3)nc3cc(OC)ccc23)CN1C(=O)[C@@H](NC(=O)OC(C)(C)C)C(C)(C)C)C(=O)NS(=O)(=O)C1(Cc2ccc(OC)cc2)CC1 | NS3/NS4A protease | IC50 |  | Hepatitis C virus | BMS |  | <0.05 µM
Cc1ccc(C(=O)N(C)c2cc(-c3ccccc3F)sc2C(=O)O)cc1 | NS3 ATPase | IC50 |  | Hepatitis C virus |  |  | <5 µM
C[C@@H](NC(=O)c1ccc2c(c1)nc(-c1ccoc1)n2C1CCCCC1)C(=O)Nc1ccc2[nH]c(C(=O)O)cc2c1 | NS5B polymerase | IC50 |  | Hepatitis C virus |  |  | <0.5 µM
CC[C@H]1C[C@@]1(NC(=O)[C@@H]1C[C@@H](Oc2cc(-c3ccccc3)nc3cc(OC)ccc23)CN1C(=O)[C@H](CC1CCCCC1)NC(=O)OC(C)(C)C)C(=O)NS(C)(=O)=O | NS3/NS4A protease | IC50 |  | Hepatitis C virus | BMS |  | <5 µM
Clc1ccc(COc2ccc(-c3cnc4c(-c5nn[nH]n5)cnn4c3C3CCCCC3)cc2)cc1Cl | RNA-dependent RNA polymerase | IC50 |  | Hepatitis C virus |  |  | 1–10 µM
N#Cc1c(Cc2ccccc2)nc(SCc2ccccc2)[nH]c1=O | NS3/NS4A helicase | IC50 |  | Hepatitis C virus |  |  | >40 µM
Cc1noc(COc2ccc(CCC3(C4CCCC4)CC(O)=CC(=O)O3)cc2)n1 | Nonstructural protein 5B | IC50 |  | Hepatitis C virus |  |  | 10–50 µM
Cc1cn([C@H]2C=C[C@@H](COP(=O)(O)OP(=O)(O)OP(=O)(O)O)O2)c(=O)nc1N | DNA polymerase | IC50 |  | Hepatitis B virus |  |  | 8 µM
O=C(O)c1cc2nc(-c3ccc(Cl)cc3Cl)cc(-c3ccccc3OCc3ccccc3)n2n1 | RNA-dependent RNA polymerase | IC50 |  | Hepatitis C virus |  |  | 1–10 µM
Cc1cc(C)c(C#N)c(=N)o1 | RNase H | inhibition | 10 µM | Hepatitis B virus | gtH | RNase H / substrate cleavage | >43%
N#Cc1c(-c2ccc(Cl)cc2)nc(SCCCc2ccccc2)[nH]c1=O | NS3/NS4A helicase | IC50 |  | Hepatitis C virus |  |  | <15 µM
Cc1cc(F)c(S(=O)(=O)Nc2cc(-c3ccccc3)sc2C(=O)O)cc1C(=O)O | NS3 ATPase | IC50 |  | Hepatitis C virus |  |  | >20 µM
CC(NC(=O)c1ccc2c(c1)nc(-c1ccoc1)n2C1CCCCC1)C(=O)NC(C)C(=O)Nc1ccc(CCCC(=O)O)cc1 | NS5B polymerase | IC50 |  | Hepatitis C virus |  |  | 5–25 µM

7 of the rows above, restated:

compound,target,read-out,tested at,species,strain or isolate,read by,value
C=C[C@@H]1C[C@]1(NC(=O)[C@@H]1C[C@@H](Oc2cc(-c3ccccc3)nc3cc(OC)ccc23)CN1C(=O)[C@@H](NC(=O)OC(C)(C)C)C(C)(C)C)C(=O)NS(=O)(=O)CCCC,NS3/NS4A protease,IC50,,Hepatitis C virus,BMS,,<0.05 µM
N#Cc1c(Cc2ccccc2)nc(SCc2ccccc2)[nH]c1=O,NS3/NS4A helicase,IC50,,Hepatitis C virus,,,>40 µM
COc1ccc(OC)c(COc2ccc(-c3cnc4c(-c5nn[nH]n5)cnn4c3C3CCCCC3)cc2)c1,RNA-dependent RNA polymerase,IC50,,Hepatitis C virus,,,1–10 µM
C=C[C@@H]1C[C@]1(NC(=O)[C@@H]1C[C@@H](Oc2cc(-c3ccccc3)nc3cc(OC)ccc23)CN1C(=O)[C@@H](NC(=O)OC(C)(C)C)C(C)(C)C)C(=O)NS(=O)(=O)C1CCC1,NS3/NS4A protease,IC50,,Hepatitis C virus,BMS,,<0.05 µM
Cc1ccccc1S(=O)(=O)Nc1cc(-c2ccc(CO)cc2)sc1C(=O)O,NS3 ATPase,IC50,,Hepatitis C virus,,,<5 µM
N#Cc1c(C2CCCCC2)nc(Sc2cc(C(F)(F)F)ccc2[N+](=O)[O-])[nH]c1=O,NS3/NS4A helicase,IC50,,Hepatitis C virus,,,<15 µM
C/C(=C\CCC1=CC[C@H](C2=CC(=O)O[C@@H]2O)O[C@H]1O)CCC1C(C)CCCC1(C)C,NS3 RNA helicase activity,IC50,,Hepatitis C virus,,,15 µM